Measured values as given in ChEMBL document CHEMBL1156168, “Eastern extension of azoles as non-nucleoside inhibitors of HIV-1 reverse transcriptase; cyano group alternatives” (Bioorg Med Chem Lett, 2010).

Tested on: MT2
Experiment: Cytotoxicity against human MT2 cells infected with HIV1 harboring reverse transcriptase K103N/Y181C mutation by MTT assay
Assay type: cell-based

N#Cc1ccc(Nc2ncc(Cc3c(F)cccc3F)o2)cc1Cl
CC50: 8.9 µM
